Measured values published in EP1215282A1, “METHOD OF DETECTING TRICHOTHECENE MYCOTOXINS AND REAGENT THEREOF” (dated 2001).

Columns and labels:
Conditions in all cases: relative reactivity based on the reactivity with the substance most reactive expressed as 1
[1] = tested on: monoclonal antibody KTM-205; experiment: competitive ELISA, specificity of antibody KTM-205
[2] = tested on: monoclonal antibody KTM-249; experiment: competitive ELISA, specificity of antibody KTM-249
[3] = tested on: monoclonal antibody KTM-240; experiment: competitive ELISA, specificity of antibody KTM-240

Row | Compound | Reactivity of Antibodies KTM-205 [1] | Reactivity of Antibodies KTM-249 [2] | Reactivity of Antibodies KTM-240 [3]
1 | CC(=O)OC[C@]12C[C@H](OC(=O)CC(C)C)C(C)=C[C@H]1O[C@@H]1[C@H](O)[C@@H](O)[C@@]2(C)[C@]12CO2 | - | 1.00 | -
2 | CC(=O)O[C@@H]1[C@@H](OC(C)=O)[C@]2(C)[C@@]3(CO)[C@H](O)C(=O)C(C)=C[C@H]3O[C@H]1[C@@]21CO1 | 0.01 | - | <0.01
3 | CC(=O)OC[C@]12[C@H](O)C(=O)C(C)=C[C@H]1O[C@@H]1[C@H](O)[C@@H](OC(C)=O)[C@@]2(C)[C@]12CO2 | 0.02 | - | 0.02
4 | CC(=O)OC[C@]12[C@H](OC(C)=O)C(=O)C(C)=C[C@H]1O[C@@H]1[C@H](O)[C@@H](OC(C)=O)[C@@]2(C)[C@]12CO2 | <0.01 | - | -
5 | CC(=O)OC[C@]12[C@H](O)C(=O)C(C)=C[C@H]1O[C@@H]1[C@H](OC(C)=O)C[C@@]2(C)[C@]12CO2 | - | - | 1.00
6 | T-2 toxin | - | 1.00 | -
7 | CC1=C[C@H]2O[C@@H]3[C@H](O)[C@@H](O)[C@](C)([C@@]2(CO)[C@H](O)C1=O)[C@]31CO1 | -* | - | -
8 | CC(=O)OC[C@]12[C@H](OC(C)=O)C(=O)C(C)=C[C@H]1O[C@@H]1[C@H](OC(C)=O)C[C@@]2(C)[C@]12CO2 | - | - | 0.04
9 | CC(=O)O[C@@H]1[C@@H](O)[C@H]2O[C@@H]3C=C(C)C(=O)[C@@H](O)[C@]3(CO)[C@]1(C)[C@]21CO1 | <0.01 | - | -
10 | CC(=O)OC[C@]12[C@H](O)C(=O)C(C)=C[C@H]1O[C@@H]1[C@H](OC(C)=O)[C@@H](OC(C)=O)[C@@]2(C)[C@]12CO2 | 1.00 | - | 1.00
11 | CC(=O)O[C@@H]1C[C@]2(C)[C@@]3(CO)[C@H](O)C(=O)C(C)=C[C@H]3O[C@H]1[C@@]21CO1 | - | - | -
12 | CC(=O)OC[C@]12[C@H](O)C(=O)C(C)=C[C@H]1O[C@@H]1[C@H](O)C[C@@]2(C)[C@]12CO2 | - | - | 0.02
13 | CC(=O)OC[C@]12C[C@H](OC(=O)CC(C)C)C(C)=C[C@H]1O[C@@H]1[C@H](OC(C)=O)[C@@H](OC(C)=O)[C@@]2(C)[C@]12CO2 | - | 0.78 | -
14 | CC1=C[C@H]2O[C@@H]3[C@H](O)C[C@](C)([C@@]2(CO)[C@H](O)C1=O)[C@]31CO1 | - | - | -
15 | CC(=O)OC[C@]12[C@H](OC(C)=O)C(=O)C(C)=C[C@H]1O[C@@H]1[C@H](OC(C)=O)[C@@H](OC(C)=O)[C@@]2(C)[C@]12CO2 | <0.01 | - | <0.01
